# Data from the supplement of paper PMC8497498.
# Experiments:
# Details in all cases: P. vivax isolate: Pv728; hepatocyte lot: BGW; assay mode: Radical Cure, 8-day (treatment from day 5 post-infection)
# [1] = system: primary human hepatocytes; assay: CC20 hepatic nuclei (20% reduction); higher = less toxic
# Protocol: (§1)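 Dose-response of P. vivax liver stages in primary human hepatocytes, with 8 points (10 uM-[…], v1) or 12 points in duplicate (50 uM-280 pM, v2). Read-out is high-content imaging of schizont net growth area, hypnozoite quantity and hepatic nuclei. EC50 and CC20 (20% nuclei loss) were fitted in CDD Vault from the highest-quality independent experiment; toxic-dose bell-shaped points were masked. '>' marks the highest concentration with less than 50% activity, and ND means a non-sigmoidal curve.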
# [2] = system: Plasmodium vivax liver stage (primary human hepatocyte culture); assay: maximum inhibition of schizont net growth area; higher = more active
# Protocol: as §1
# [3] = system: Plasmodium vivax liver stage (primary human hepatocyte culture)
# Protocol: as §1
compound,measurement,setting,value
c1ccc2c(NCCCCCCNc3c4c(nc5ccccc35)CCCC4)c3c(nc2c1)CCCC3,CC20 hepatic nuclei,[1],42.1 µM
same,maximum inhibition,[2],102%
same,EC50 hypnozoite quantity,[3],> 50 µM
same,EC50 schizont net growth area,[3],> 16.7 µM
